Test results as given in ChEMBL document CHEMBL4680109, “A road map for prioritizing warheads for cysteine targeting covalent inhibitors” (Eur J Med Chem, 2018).

Key:
[1] = molecular target: Cathepsin B (Homo sapiens) (UniProt P07858); assay: (§1) Inhibition of recombinant cathepsin B (unknown origin) endopeptidase activity expressed in Escherichia coli assessed as residual activity at 100 uM using Z-RR-AMC as substrate preincubated for 30 mins under shaking in presence of 5 mM cysteine followed by substrate addition relative to control
[2] = molecular target: Cathepsin B (Homo sapiens) (UniProt P07858); assay: as §1, with “exopeptidase” for “endopeptidase”, “Abz-GIVRAK(Dnp)-OH” for “Z-RR-AMC”
Staphylococcus aureus = assay: Inhibition of Staphylococcus aureus MurA expressed in Escherichia coli assessed as residual activity at 100 uM using UNAG and PEP as substrate preincubated for 30 mins in presence of UNAG followed by PEP addition and measured after 15 mins by malachite green colorimetric assay relative to control; settings: time 45.0 min
Escherichia coli [3] = assay: Inhibition of Escherichia coli MurA assessed as residual activity at 100 uM using UNAG and PEP as substrate preincubated for 30 mins in presence of UNAG followed by PEP addition and measured after 15 mins by malachite green colorimetric assay relative to control; settings: time 45.0 min
Escherichia coli [4] = assay: Inhibition of Escherichia coli MurA assessed as residual activity at 100 uM using UNAG and PEP as substrate preincubated for 30 mins in presence of UNAG followed by PEP addition and measured after 15 mins in presence of 5 mM cysteine by malachite green colorimetric assay relative to control; settings: time 45.0 min
In short: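 MurA from E. coli, with the enzyme diluted in Hepes pH 7.8 containing cysteine (15 mM in buffer, giving 5 mM in incubation). Preincubated with UNAG and compound for 30 min at 37 °C, then PEP added and reacted 15 min at 37 °C. Phosphate read by malachite green at 650 nm. Duplicates; residual activity is versus DMSO control.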

O=C(CBr)c1ccc([N+](=O)[O-])cc1
Activity [1]: 58%
Activity [2]: 27%
Activity (Staphylococcus aureus): 1%
Activity (Escherichia coli [3]): 1.5%
Activity (Escherichia coli [4]): 100%
